Measured values from several laboratories, pooled; numbers as filed in NIAID ChemDB.

Shared fields: toxicity to cultured cells; cells: MCF-7; endpoint: CC50

Blank or dashed fields: not listed here. Lines come from different laboratories, so protocols vary. CCn: concentration that lowers growth or viability of the cells by n%.

smiles	method	result
O=C1/C(=C/c2ccc(-c3cc(C(F)(F)F)ccc3Cl)o2)SC(=S)N1Cc1ccc(F)cc1	MTT	1.2 µM
COC1=NC=C[C@@H]2O[C@@H]3SC(OC)=NC=C[C@@H]3O[C@@H]2S1	sulforhodamine	69.4 µg/mL
CC(=NNC(=O)c1snnc1C(F)(F)F)c1ccccn1	MTT	6.01 µg/mL
CC(=O)O[C@@H](C/C=C(\C)C(=O)O)[C@@H](C)[C@H]1CC[C@@]2(C)C3=C(CC[C@]12C)[C@@]1(C)CC[C@@H](O)C(C)(C)C1CC3	resazurin	40.15 µg/mL
O=C1NC(=NCCc2ccc(Cl)c(Cl)c2)S/C1=C\c1ccc(-c2ccc(C(=O)O)c(O)c2)o1	MTT	>100 µM
C/C(=C/CC[C@@H](C)C(=O)C1C[C@@]2(C)[C@@H]3CC[C@H]4C(C)(C)C(=O)CC[C@]4(C)C3=C[C@@]2(O)[C@]1(C)O)C(=O)O	MTT	>40 µg/mL
COc1c(OC(C)=O)cc2c(c1O)-c1c(cc(O)c(OC)c1OC)C[C@@H](C)[C@@H](C)C2	MTT	8.7 µg/mL
Cc1ccc(C(C)C)cc1.O=C([O-])c1cn(CCO)c2ccc(Cc3ccccc3)cc2c1=O.[Cl][Ru+]	MTT	>20 µM
COc1cc2c3c(cc(O)c2cc1C)C(C)(C)C(=O)OC3=O	absorbance	>10 µM
COc1c(C)c(C)c2[nH]c3ccc(Cc4c(C)c(OC)c(O)c5c4[nH]c4ccccc45)cc3c2c1O	resazurin	36.3 µg/mL
CCOC(=O)/C=C/c1cc(CC)cnc1Cl	MTT	9 µM
COc1ccc2[nH]c3c(Cc4ccc5[nH]c6c(C)c(C)c(OC)c(O)c6c5c4)c(C)c(OC)c(O)c3c2c1	resazurin	30.3 µg/mL
Nc1ccn([C@H]2CC[C@@H](CO)O2)c(=O)n1	-	610 µM
N#Cc1c(N)c2c3c([nH]c2[nH]c1=O)SC(c1ccncc1)C1=C3/C(=C/c2ccncc2)CCC1	MTT	15.6 µM
Cc1cnc(Cl)c(/C=C/C(=O)c2ccccc2)c1	MTT	14 µM
C[N+](C)(C)C(Cc1c[nH]c2ccccc12)C(=O)[O-]	resazurin	>50 µg/mL
C[C@@H]1CC[C@H]2C3=C(C[C@H](O)[C@@]2(O)C1)C(=O)c1c(O)cccc1C3=O	resazurin	3.4 µM
CC1(C)CCC[C@]2(C)[C@H]3C[C@@H](C4=CCOC4=O)CC3=CC[C@@H]12	absorbance	22.5 µM
COc1cc2c(c(O)c1OC)-c1c(cc(OC(C)=O)c(OC)c1O)C[C@@H](C)[C@@H](C)C2	MTT	>10 µg/mL
CCOC(=O)/C(=C\c1cc(-c2ccccc2)cnc1Cl)C(=O)c1ccccc1	MTT	106 µM
C/C(=C\C[C@H](O)[C@@H](C)[C@H]1CC[C@@]2(C)C3=C(CC[C@]12C)[C@@]1(C)CC[C@H](O)C(C)(C)C1CC3)C(=O)O	resazurin	>50 µg/mL
CCOC(=O)/C=C/c1cc(-c2ccccc2)cnc1Cl	MTT	11 µM
Br.CN1C=CN(c2cccc(N3C=CN(C)C3)n2)C1	sulforhodamine / absorbance	>30 µM
CC(C)=C[C@@H](C[C@@H](C)[C@H]1CC[C@@]2(C)[C@@H]3[C@@H](OC(=O)c4ccccc4)C=C4[C@@H](CC[C@H](OC(=O)c5ccccc5)C4(C)C)[C@]3(C)CC[C@]12C)OC(=O)c1ccccc1	MTT	>133.3 µM
O=C1Cn2c(nc3c(c2=S)C2=C(CCC/C2=C\c2ccncc2)C(c2ccncc2)S3)S1	MTT	44.8 µM
C[C@H](O)Cc1cc2c(O[C@H]3O[C@H](CO)[C@@H](O)[C@H]3O)ccc(O)c2c(=O)o1	MTT	>40 µg/mL
C/C(=N\NC(=O)c1ccccc1)c1cccc(/C(C)=N/NC(=O)c2ccccc2)n1	MTT	41.15 µM
CC(C)c1nc(C(=O)NCc2ccc(F)cc2)c([O-])c(=O)n1C.Cc1ccc(C(C)C)cc1.[Cl][Ru+]	MTT	>20 µM
CCOC1N=C2C3=C(N=C(C)N2N1c1ccccc1)SC(c1ccncc1)C1=C3/C(=C/c2ccncc2)CCC1	MTT	13.4 µM
CC[C@H](C)C(=O)c1c(O)cc(O)cc1OC/C=C(\C)CCC=C(C)C	sulforhodamine	12.5 µM
COc1ccc2[nH]c3c(C)c(C)c(OC)c(OC)c3c2c1	resazurin	21.3 µg/mL

Repeating the first 3 entries:

O=C1/C(=C/c2ccc(-c3cc(C(F)(F)F)ccc3Cl)o2)SC(=S)N1Cc1ccc(F)cc1 ; method: MTT ; result: 1.2 µM
COC1=NC=C[C@@H]2O[C@@H]3SC(OC)=NC=C[C@@H]3O[C@@H]2S1 ; method: sulforhodamine ; result: 69.4 µg/mL
CC(=NNC(=O)c1snnc1C(F)(F)F)c1ccccn1 ; method: MTT ; result: 6.01 µg/mL